Results reported in US20070010489A1 (priority 2002, published 2007).
Where two headings read alike, the source gives them in different places.

Tests used:
[1] = test system: wild-type HIV-1 strain IIIB; experiment: Anti-HIV-1 Cell Culture Assay (EC50); assay type: cell-based
[2] = target: recombinant HIV-1 protease (Human immunodeficiency virus type 1 group M subtype B, UniProt P04585); experiment: HIV-1 Protease Enzyme Assay (Ki); assay type: biochemical

Structure (SMILES)	EC50 [1]	Ki [2]	Ki ([2]; Enzymatic assay)
Cc1c(O)cccc1C(=O)N[C@@H](Cc1ccc(OCP(=O)(OCc2ccccc2)OCc2ccccc2)cc1)[C@H](O)CN(CC(C)C)S(=O)(=O)c1ccc(N)cc1	50 to 500 nM	0.01 to 0.1 nM	
COc1ccc(S(=O)(=O)N(CC(C)C)C[C@@H](O)[C@H](Cc2cc[n+]([O-])cc2)NC(=O)O[C@H]2CO[C@H]3OCC[C@H]32)cc1		0.01 to 0.1 nM	
O=C1N(Cc2ccc3[nH]ncc3c2)[C@H](Cc2ccccc2)[C@H](O)[C@@H](O)[C@@H](Cc2ccccc2)N1Cc1ccc2[nH]ncc2c1			< 0.01 nM
O=C1N(Cc2ccc3[nH]ncc3c2)[C@H](Cc2ccc(O)cc2)[C@H](O)[C@@H](O)[C@@H](Cc2ccc(O)cc2)N1Cc1ccc2[nH]ncc2c1			0.012 nM
CCCCOC(=O)[C@H](C)NP(=O)(COc1ccc(S(=O)(=O)N(CC(C)C)C[C@@H](O)[C@H](Cc2ccccc2)NC(=O)O[C@H]2CO[C@H]3OCC[C@H]32)cc1)N[C@@H](C)C(=O)OCCCC	50 to 500 nM		
